# Target: 6×His tag-labeled ubiquitin (UniProt P0CG48)
# Assay: ITC
# Details: domain or fragment
substance,measurement,value
LotA_(1-542) (from UniProt Q5ZTB4 1-542),Kd,3.35 µM

# Source: paper PMC9486567
